Experimental data published in article PMC10998906 (NPJ Vaccines, 2024).

Biological target: H1 monomeric (NL09 HA) (Influenza A virus …, UniProt C3PSV2, strain)
Test: ELISA

B1: CR9114 antibody (antibody, V domains shown)
VH: QVQLVQSGAEVKKPGSSVKVSCKSSGGTSNNYAISWVRQAPGQGLDWMGGISPIFGSTAYAQKFQGRVTISADIFSNTAYMELNSLTSEDTAVYFCARHGNYYYYSGMDVWGQGTTVTVSS
VL: QSALTQPPAVSGTPGQRVTISCSGSDSNIGRRSVNWYQQFPGTAPKLLIYSNDQRPSVVPDRFSGSKSGTSASLAISGLQSEDEAEYYCAAWDDSLKGAVFGGGTQLTVL
notes: copies: 2 + 2
  binding result: binds
